Like-named read-outs stand apart in the source and are kept apart here.
Experiments:
[1] = tested on: HCMV Strain AD169; test: Viral qPCR assay, HCMV in MRC-5 cells; assay type: cell-based, Human cytomegalovirus
Experimental: (§1) MRCS cells, Vero cells, and MeWo cells were obtained from ATCC and were maintained at 37° C./5% CO2/90% relative humidity in Minimal Essential Medium with 10% fetal bovine serum, […] L-glutamine, 100 units/ml penicillin and 100 ug/ml streptomycin. Assay plates were prepared by dispensing compounds dissolved in DMSO into wells of 384 well collagen-coated plates using an ECHO acoustic dispenser. Each compound was tested in a 10-point, serial 3-fold dilution. Controls included uninfected cells and infected cells treated only with DMSO. Assays were initiated by mixing selected cells, in suspension, with virus, and dispensing 50 μl/well infected cells to pre-plated compounds. Plates were incubated at 37° C./5% CO2/90% relative humidity for ˜72 hrs to permit genomic replication, and infected cells were lysed by the addition of an equal volume of lysis buffer (10 mM Tris-HCl, pH8, 50 mM KCl, 2 mM MgCl2, 0.45% NP-40, 0.45% Tween-20, and 100 μg/ml proteinase K). An aliquot of the lysate was transferred to a 384-well PCR plate and incubated at 56° C. for 1 hour and then at 95° C. for 10 min. Levels of a viral gene and of the cellular control, PPIA (Thermo Fisher Assay ID=Hs04194521_s1), were measured in separate 10 μL qPCR assays using TaqMan® Gene Expression Master Mix (Applied Biosystems), and an 7900HT Fast Real-Time PCR System with 384-Well Block Module. 7-point, serial 10-fold dilutions of a plasmid standard were run on each plate to generate a standard curve, and genome copies numbers were calculated by plotting experimental Ct onto linear regression of the standard curve. Viral genome copy numbers were normalized by cellular control copy number, and compound effects were normalized to the window defined by the controls. Calculated % effects were fit using a 4-parameter algorithm, and EC50 was reported.
as §1, with “gene” for “gene and of the cellular control, PPIA (Thermo Fisher Assay ID=Hs04194521_s1),”, “in” for “in separate”, “Compound effects on viral” for “Viral”, “number” for “numbers were normalized by cellular control copy number, and compound effects”
HCMV: Strain AD169 Street was assayed in MRC-5 cells and was used at 0.05-0.1 pfu/cell. The assays were performed in either growth media or in the same media with 50% fetal bovine serum. Primer-probe set was Thermo Fisher Assay ID=AIFATFK.

The chains behind the UniProt entries cited, without tags or fusion partners.
UniProt P08546, whole entry: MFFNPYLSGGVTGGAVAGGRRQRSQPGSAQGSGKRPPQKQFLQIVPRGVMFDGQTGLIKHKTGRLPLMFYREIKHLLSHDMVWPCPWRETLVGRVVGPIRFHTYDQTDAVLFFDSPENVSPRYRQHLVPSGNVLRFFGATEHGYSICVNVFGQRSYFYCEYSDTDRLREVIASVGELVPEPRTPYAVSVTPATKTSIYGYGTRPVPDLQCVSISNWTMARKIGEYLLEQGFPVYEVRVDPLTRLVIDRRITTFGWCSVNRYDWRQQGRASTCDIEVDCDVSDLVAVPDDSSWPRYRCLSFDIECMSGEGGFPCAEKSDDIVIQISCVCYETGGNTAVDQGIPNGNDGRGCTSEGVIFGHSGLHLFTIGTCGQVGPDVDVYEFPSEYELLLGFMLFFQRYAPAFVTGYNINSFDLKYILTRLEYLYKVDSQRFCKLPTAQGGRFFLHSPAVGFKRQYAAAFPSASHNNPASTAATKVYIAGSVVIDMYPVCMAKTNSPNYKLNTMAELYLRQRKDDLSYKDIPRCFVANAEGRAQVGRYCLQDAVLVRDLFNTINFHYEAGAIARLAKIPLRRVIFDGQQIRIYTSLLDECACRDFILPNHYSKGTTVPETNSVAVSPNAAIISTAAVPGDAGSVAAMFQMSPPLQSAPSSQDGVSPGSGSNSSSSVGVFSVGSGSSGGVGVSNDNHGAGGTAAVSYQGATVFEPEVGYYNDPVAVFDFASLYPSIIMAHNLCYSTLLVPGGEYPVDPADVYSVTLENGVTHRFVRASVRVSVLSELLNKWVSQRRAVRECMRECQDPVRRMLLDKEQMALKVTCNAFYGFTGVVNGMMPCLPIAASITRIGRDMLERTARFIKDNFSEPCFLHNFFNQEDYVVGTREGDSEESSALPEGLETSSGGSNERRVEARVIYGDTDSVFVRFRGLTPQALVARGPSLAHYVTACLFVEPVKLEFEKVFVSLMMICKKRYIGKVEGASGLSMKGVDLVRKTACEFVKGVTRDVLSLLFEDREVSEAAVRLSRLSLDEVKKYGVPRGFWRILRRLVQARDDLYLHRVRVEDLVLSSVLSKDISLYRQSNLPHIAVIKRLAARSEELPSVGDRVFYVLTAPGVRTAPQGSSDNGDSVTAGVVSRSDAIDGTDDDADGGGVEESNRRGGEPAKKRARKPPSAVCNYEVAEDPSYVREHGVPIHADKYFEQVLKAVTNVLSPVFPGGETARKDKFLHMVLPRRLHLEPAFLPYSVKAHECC
UniProt P09252, whole entry: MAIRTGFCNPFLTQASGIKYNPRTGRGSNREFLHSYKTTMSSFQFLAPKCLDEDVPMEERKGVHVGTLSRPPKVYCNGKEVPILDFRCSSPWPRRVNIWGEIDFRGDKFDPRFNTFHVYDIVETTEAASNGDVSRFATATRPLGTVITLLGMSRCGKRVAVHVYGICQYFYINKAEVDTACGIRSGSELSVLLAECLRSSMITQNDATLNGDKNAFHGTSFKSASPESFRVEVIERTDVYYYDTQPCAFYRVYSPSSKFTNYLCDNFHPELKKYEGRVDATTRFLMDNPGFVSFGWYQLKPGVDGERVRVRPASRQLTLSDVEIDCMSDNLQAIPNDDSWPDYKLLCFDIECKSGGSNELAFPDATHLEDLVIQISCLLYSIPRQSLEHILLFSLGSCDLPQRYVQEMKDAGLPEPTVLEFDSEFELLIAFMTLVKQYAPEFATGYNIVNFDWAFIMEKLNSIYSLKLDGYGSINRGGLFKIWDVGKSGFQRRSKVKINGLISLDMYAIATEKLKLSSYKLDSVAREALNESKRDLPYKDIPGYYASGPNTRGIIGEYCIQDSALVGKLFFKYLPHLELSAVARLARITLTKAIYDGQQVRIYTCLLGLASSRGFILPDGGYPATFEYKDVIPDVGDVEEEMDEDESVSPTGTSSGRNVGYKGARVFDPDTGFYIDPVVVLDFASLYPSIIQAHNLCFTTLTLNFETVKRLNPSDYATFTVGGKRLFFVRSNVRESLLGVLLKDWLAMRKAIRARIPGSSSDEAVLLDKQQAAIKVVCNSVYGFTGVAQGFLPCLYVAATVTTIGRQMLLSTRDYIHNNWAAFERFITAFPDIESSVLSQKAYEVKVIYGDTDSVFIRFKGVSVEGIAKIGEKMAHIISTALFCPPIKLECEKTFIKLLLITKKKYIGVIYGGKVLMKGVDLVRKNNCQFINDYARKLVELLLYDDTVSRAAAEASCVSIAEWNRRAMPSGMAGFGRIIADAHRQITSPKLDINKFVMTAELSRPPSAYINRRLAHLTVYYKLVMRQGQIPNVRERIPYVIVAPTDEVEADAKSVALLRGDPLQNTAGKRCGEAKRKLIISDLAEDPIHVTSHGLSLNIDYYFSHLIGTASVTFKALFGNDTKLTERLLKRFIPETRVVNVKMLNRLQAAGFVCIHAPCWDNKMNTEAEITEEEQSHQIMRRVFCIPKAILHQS

[2] = target: Human cytomegalovirus DNA polymerase (Human cytomegalovirus, UniProt P08546); test: HCMV polymerase assay (AlphaLISA); assay type: biochemical; details: read-out: CMV (IC50), HCMV DNA polymerase 0.2 nM, 60 minutes at 37° C.
Experimental: (§2) Human cytomegalovirus and varicella zoster virus DNA polymerases were expressed via baculovirus vector in SF21 cells and purified. Heterodimeric nucleic acid substrate used in the herpesvirus polymerase reactions was generated by annealing a 59-mer template to a 17-mer digoxigenin-labeled primer. Polymerase (HCMV final concentration of 0.2 nM; VZV final concentration of 0.4 nM) was combined with an inhibitor compound or DMSO in assay buffer (10 mM HEPES, pH 7.5, 25 mM KCl, 25 mM NaCl, 5 mM MgCl2, 5% glycerol, 0.67 mg/ml bovine serum albuminutes, and 1 mM tris(2-carboxyethyl)phosphine), and this mixture was pre-incubated for 30 minutes at room temperature in 384-well microtiter plates. The polymerization reaction was initiated by the addition of template/primer substrate (final concentration: 1.6 nM), and dNTPs (final concentration: 24 nM dCTP, 24 nMdGTP, 16 nM dATP, 16 nM dTTP, and 0.8 nM biotin-dUTP). After 60 minutes incubation at 37° C., reactions were terminated with quench buffer (25 mM HEPES pH 7.5, 100 mM NaCl, 0.25% Tween-20, 12 mM EDTA, and 1 mg/ml bovine serum albumin). Incorporation of biotinylated UTP was detected with 2.5-ug/ml anti-DIG AlphaLISA acceptor beads and 5-10 ug/ml streptavidin AlphaLISA donor beads (Perkin Elmer). Compound effects were normalized to the window defined by the controls (DMSO only and pre-quenched wells) and were fit using a 4-parameter algorithm to report an IC50.

[3] = tested on: HSV2; test: Viral qPCR assay, HSV2 in Vero cells; assay type: cell-based, Herpes Simplex Virus type 2; details: read-out: HSV2 VERO Cell (EC50), ~72 hrs
Experimental: as §1, with “Plates were incubated at 37° C./5% CO2/90% relative humidity for ˜72 hrs to permit genomic replication, and infected cells were lysed by the addition of an equal volume of lysis buffer (10 mM Tris-HCl, pH8, 50 mM KCl, 2 mM MgCl2, 0.45% NP-40, 0.45% Tween-20, and 100 μg/ml proteinase K). An aliquot of the lysate was transferred to a 384-well PCR plate and incubated at 56° C. for 1 hour and then at 95° C. for 10 min.” left out, “Viral genome copy numbers were normalized by cellular control copy number, and compound effects were normalized to the window defined by the controls.” left out, “reported. […]” for “reported.”

[4] = target: varicella zoster virus DNA polymerase (Varicella-zoster virus, UniProt P09252); test: VZV polymerase assay (AlphaLISA); assay type: biochemical; details: read-out: VZV (IC50); VZV DNA polymerase 0.4 nM, 60 minutes at 37° C.
Experimental: as §2, with “Compound effects were normalized to the window defined by the controls (DMSO only and pre-quenched wells) and were fit using a 4-parameter algorithm to report an IC50.” left out

[5] = tested on: HSV-1 Strain F; test: Viral qPCR assay, HSV-1 in Vero cells; assay type: cell-based, Herpes Simplex Virus type 1; details: read-out: HSV1 VERO Cell (EC50), ~72 hrs
Experimental: as §1, with “Plates were incubated at 37° C./5% CO2/90% relative humidity for ˜72 hrs to permit genomic replication, and infected cells were lysed by the addition of an equal volume of lysis buffer (10 mM Tris-HCl, pH8, 50 mM KCl, 2 mM MgCl2, 0.45% NP-40, 0.45% Tween-20, and 100 μg/ml proteinase K). An aliquot of the lysate was transferred to a 384-well PCR plate and incubated at 56° C. for 1 hour and then at 95° C. for 10 min.” left out, “Viral genome copy numbers were normalized by cellular control copy number, and compound effects were normalized to the window defined by the controls.” left out, “reported. […]” for “reported.”

[6] = read-out: CMV MRC5 Cell (EC50), ~72 hrs

For `C[C@H]1C[C@@H](CN2Cc3c(C(=O)NCc4ccc(Cl)cc4)nn(C)c3C2)NC1=O` (relative stereo) [93], the EC50 [1, 6] was 2160 nM and the IC50 [2] was 97.6 nM.
`C[C@H]1C[C@@H](CN2Cc3c(C(=O)NCc4ccc(Cl)cc4)nn(C)c3C2)NC1=O` (relative stereo) [94] showed an EC50 [1, 6] of 1190 nM and an IC50 [2] of 120 nM.
`CC1c2c(c(C(=O)NCc3ccc(Cl)cc3)nn2C)CN1C(C)C1CCC(=O)N1` (single isomer, unassigned) showed an EC50 ([1]; read-out: CMV MRC5 Cell (EC50), ~72 hrs, tested form: HCl) of 5010 nM and an IC50 ([2]; tested form: HCl) of 1530 nM.
`Cn1nc(C(=O)NCc2ccc(Cl)cc2)c2c1CN(CC1(C)CCC(=O)N1)C2` (single isomer, unassigned) gave an EC50 [3] of 99000 nM, an IC50 [4] of 4060 nM and an EC50 [5] of 99000 nM. The EC50 [1, 6] was 33000 nM and the IC50 [2] was 12100 nM.
`CC(C)C(=O)NCCn1nc(C(=O)NCc2ccc(Cl)cc2)c2c1CN(C[C@H]1CCC(=O)N1)C2` [Compound 25] was tested, and the IC50 [4] was 13.1 nM, the EC50 [1, 6] was 5530 nM and the IC50 [2] was 45.9 nM.
In the case of `Cn1nc(C(=O)NCc2ccc(Cl)cc2)c2c1CN(C[C@H]1CC(F)C(=O)N1)C2` (stereo partly shown) [Compound 78], the EC50 [1, 6] is reported as 304 nM and the IC50 [2] is reported as 49.8 nM.

— patent publication US20240059693A1, “FUSED BICYCLIC PYRAZOLE DERIVATIVES AND METHODS OF USE THEREOF FOR THE TREATMENT OF HERPESVIRUSES” (Merck Sharp & Dohme LLC, priority 2020, published 2024)
